# In patent US12605369B2, “Amido-substituted heterocyclic compounds and methods of use thereof for the treatment of herpes viruses” (Merck Sharp & Dohme LLC, priority 2019, dated 2026):
# Amino acid sequences for entries named in this document (tags omitted).
# UniProt P09252, whole entry: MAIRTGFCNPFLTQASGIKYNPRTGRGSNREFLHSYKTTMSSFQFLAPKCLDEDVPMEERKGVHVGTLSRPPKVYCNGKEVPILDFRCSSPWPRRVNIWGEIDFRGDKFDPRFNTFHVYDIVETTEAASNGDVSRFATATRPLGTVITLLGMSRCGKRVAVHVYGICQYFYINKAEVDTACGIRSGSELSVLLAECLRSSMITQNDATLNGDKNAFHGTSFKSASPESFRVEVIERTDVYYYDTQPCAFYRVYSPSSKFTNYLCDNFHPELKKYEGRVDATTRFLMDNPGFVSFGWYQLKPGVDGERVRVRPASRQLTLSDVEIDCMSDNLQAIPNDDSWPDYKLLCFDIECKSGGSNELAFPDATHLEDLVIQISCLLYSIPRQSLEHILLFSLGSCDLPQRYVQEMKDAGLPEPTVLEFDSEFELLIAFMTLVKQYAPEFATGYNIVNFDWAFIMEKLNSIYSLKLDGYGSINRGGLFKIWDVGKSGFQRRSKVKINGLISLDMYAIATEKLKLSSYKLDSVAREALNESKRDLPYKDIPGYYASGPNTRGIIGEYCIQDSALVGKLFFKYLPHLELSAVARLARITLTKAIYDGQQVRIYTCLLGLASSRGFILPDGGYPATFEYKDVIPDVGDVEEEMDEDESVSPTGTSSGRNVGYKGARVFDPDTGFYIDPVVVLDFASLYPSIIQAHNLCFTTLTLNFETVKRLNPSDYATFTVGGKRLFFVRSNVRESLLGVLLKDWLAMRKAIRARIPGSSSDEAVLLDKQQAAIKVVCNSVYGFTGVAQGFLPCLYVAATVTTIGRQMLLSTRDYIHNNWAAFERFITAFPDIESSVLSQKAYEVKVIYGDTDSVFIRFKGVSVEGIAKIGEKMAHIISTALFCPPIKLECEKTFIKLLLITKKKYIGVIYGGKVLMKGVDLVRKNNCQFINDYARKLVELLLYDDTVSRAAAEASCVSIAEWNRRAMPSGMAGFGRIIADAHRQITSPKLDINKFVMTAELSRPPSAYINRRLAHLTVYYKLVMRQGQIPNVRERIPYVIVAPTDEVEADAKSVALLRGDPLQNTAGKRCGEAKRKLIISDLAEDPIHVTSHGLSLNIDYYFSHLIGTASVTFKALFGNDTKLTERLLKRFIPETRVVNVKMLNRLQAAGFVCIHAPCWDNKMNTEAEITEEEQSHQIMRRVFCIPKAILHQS
# UniProt P08546, whole entry: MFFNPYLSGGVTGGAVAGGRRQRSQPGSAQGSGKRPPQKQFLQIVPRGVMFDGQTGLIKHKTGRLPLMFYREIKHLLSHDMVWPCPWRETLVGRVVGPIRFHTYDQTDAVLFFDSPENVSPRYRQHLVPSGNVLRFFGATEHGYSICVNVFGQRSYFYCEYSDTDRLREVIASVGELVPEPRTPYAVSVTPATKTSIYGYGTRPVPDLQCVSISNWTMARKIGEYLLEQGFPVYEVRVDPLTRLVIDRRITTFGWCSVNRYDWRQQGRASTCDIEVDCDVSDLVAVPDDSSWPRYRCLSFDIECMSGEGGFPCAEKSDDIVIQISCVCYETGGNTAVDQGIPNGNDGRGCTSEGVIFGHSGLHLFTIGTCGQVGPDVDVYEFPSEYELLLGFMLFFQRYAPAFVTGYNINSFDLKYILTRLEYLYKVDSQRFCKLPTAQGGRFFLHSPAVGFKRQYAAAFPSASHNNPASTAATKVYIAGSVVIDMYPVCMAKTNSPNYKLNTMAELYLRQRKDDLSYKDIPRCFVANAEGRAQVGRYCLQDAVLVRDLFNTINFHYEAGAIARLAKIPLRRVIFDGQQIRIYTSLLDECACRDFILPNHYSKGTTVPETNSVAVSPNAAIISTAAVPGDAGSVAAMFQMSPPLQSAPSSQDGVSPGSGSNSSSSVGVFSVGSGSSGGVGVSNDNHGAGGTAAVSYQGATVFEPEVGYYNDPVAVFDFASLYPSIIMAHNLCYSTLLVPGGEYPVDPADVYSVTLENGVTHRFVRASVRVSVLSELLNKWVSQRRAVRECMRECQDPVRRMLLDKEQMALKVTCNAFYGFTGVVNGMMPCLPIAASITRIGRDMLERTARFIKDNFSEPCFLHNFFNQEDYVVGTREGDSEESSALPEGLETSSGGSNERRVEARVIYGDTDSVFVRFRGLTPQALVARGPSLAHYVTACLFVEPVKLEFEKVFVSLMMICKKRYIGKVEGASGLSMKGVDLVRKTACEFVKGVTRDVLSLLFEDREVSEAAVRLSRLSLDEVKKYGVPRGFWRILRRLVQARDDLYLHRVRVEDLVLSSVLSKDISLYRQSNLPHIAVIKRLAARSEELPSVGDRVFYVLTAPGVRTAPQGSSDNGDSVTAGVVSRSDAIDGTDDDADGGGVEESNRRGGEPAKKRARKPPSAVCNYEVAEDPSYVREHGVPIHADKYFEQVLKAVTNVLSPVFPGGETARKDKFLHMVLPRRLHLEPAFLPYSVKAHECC
# Key:
# [1] = target: varicella zoster virus DNA polymerase (Varicella-zoster virus, UniProt P09252); assay: VZV polymerase assay (AlphaLISA, Example 15); format: biochemical; details: read-out: VZV IC50; VZV polymerase 0.4 nM; 30 min pre-incubation; 60 min at 37° C.
# Description: (§1) CMV and VZW Polymerase Assays
# (§2) Human cytomegalovirus and varicella zoster virus DNA polymerases were expressed via baculovirus vector in SF21 cells and purified. Heterodimeric nucleic acid substrate used in the herpesvirus polymerase reactions were generated by annealing a 59-mer template to a 17-mer digoxigenin-labeled primer. Polymerase (HCMV final concentration of 0.2 nM; VZV final concentration of 0.4 nM) was combined with an inhibitor compound or DMSO in assay buffer (10 mM HEPES, pH 7.5, 25 mM KCl, 25 mM NaCl, 5 mM MgCl2, 5% glycerol, 0.67 mg/ml bovine serum albumin, and 1 mM tris(2-carboxyethyl)phosphine)), and this mixture was pre-incubated for 30 minutes at room temperature in 384-well microtiter plates. The polymerization reaction was initiated by the addition of template/primer substrate (final concentration: 1.6 nM) and dNTPs (final concentration: 24 nM dCTP, 24 nMdGTP, 16 nM dATP, 16 nM dTTP, and 0.8 nM biotin-dUTP). After a 60 minute incubation period at 37° C., the reactions were terminated using quench buffer (25 mM HEPES pH 7.5, 100 mM NaCl, 0.25% Tween-20, 12 mM EDTA, and 1 mg/ml bovine serum albumin). Incorporation of biotinylated UTP was detected with 2.5-5 μg/mL anti-DIG AlphaLISA acceptor beads and 5-10 μg/mL streptavidin AlphaLISA donor beads (PerkinElmer). Compound effects were normalized to the window defined by the controls (DMSO only and pre-quenched wells) and were fit using a 4-parameter algorithm to report an IC50.
# [2] = target: Human cytomegalovirus DNA polymerase (Human cytomegalovirus, UniProt P08546); assay: CMV polymerase assay (AlphaLISA, Example 15); format: biochemical; details: read-out: CMV IC50; HCMV polymerase 0.2 nM; 30 min pre-incubation; 60 min at 37° C.
# Description: as §1, §2
# HCMV Strain AD169 = assay: Viral qPCR assay, HCMV (Example 14); format: cell-based; details: read-out: CMV Cell EC50; Strain AD169 in MRC-5 cells, 0.05-0.1 pfu/cell, ~72 hours, viral genome copy number by qPCR; growth media or 50% fetal bovine serum
# Description: MRCS and Vero cells were obtained from ATCC and were maintained at 37° C./5% CO2/90% relative humidity in Minimal Essential Medium with 10% fetal bovine serum, […], 100 units/mL penicillin and 100 ug/mL streptomycin. Assay plates were prepared by dispensing compounds dissolved in DMSO into wells of 384 well collagen-coated plates using an ECHO acoustic dispenser. Each test compound was tested in a 10-point, serial 3-fold dilution. Controls included uninfected cells and infected cells treated only with DMSO. Assays were initiated by mixing selected cells, in suspension, with virus, and dispensing 50 μl/well infected cells to pre-plated compounds. Plates were incubated at 37° C./5% CO2/90% relative humidity for ˜72 hours to permit genomic replication, and infected cells were lysed by the addition of an equal volume of lysis buffer (10 mM Tris-HCl, pH8, 50 mM KCl, 2 mM MgCl2, 0.45% NP-40, 0.45% Tween-20, and 100 μg/mL proteinase K). An aliquot of the lysate was then transferred to a 384-well PCR plate and incubated at 56° C. for 1 hour, and then at 95° C. for 10 minutes. Levels of a viral gene were measured in 10 ul qPCR assays using TaqMan® Gene Expression Master Mix (Applied Biosystems) and an 7900HT Fast Real-Time PCR System with 384-Well Block Module. 7-point, serial 10-fold dilutions of a plasmid standard were run on each plate to generate a standard curve, and genome copies numbers were calculated by plotting experimental Ct onto linear regression of the standard curve. Compound effects on viral genome copy number were normalized to the window defined by the controls. Calculated % effects were fit using a 4-parameter algorithm, and EC50 was reported. • HCMV: Strain AD169 was assayed in MRC-5 cells and was used at 0.05-0.1 pfu/cell. The assays were performed in either growth media or in the same media with 50% fetal bovine serum. Primer-probe set was Thermo Fisher Assay ID=AIFATFK. • HSV-1: Strain F was assayed in Vero or MRCS cells and was used at 0.0005-0.004 pfu/cell in growth medium. Primer-probe set was Thermo Fisher Assay ID=AIBJZIB. • HSV-2: Strain G was assayed in Vero or MRCS cells and was used at 0.004-0.4 pfu/cell in growth medium. Primer-probe set was Thermo Fisher Assay ID=AICSXOJ.
# HSV-2 Strain G = assay: Viral qPCR assay, HSV-2 (Example 14); format: cell-based; details: read-out: HSV2 Cell EC50; Strain G in Vero or MRCS cells, 0.004-0.4 pfu/cell, ~72 hours, viral genome copy number by qPCR
# Description: (§3) MRCS and Vero cells were obtained from ATCC and were maintained at 37° C./5% CO2/90% relative humidity in Minimal Essential Medium with 10% fetal bovine serum, […], 100 units/mL penicillin and 100 ug/mL streptomycin. Assay plates were prepared by dispensing compounds dissolved in DMSO into wells of 384 well collagen-coated plates using an ECHO acoustic dispenser. Each test compound was tested in a 10-point, serial 3-fold dilution. Controls included uninfected cells and infected cells treated only with DMSO. Assays were initiated by mixing selected cells, in suspension, with virus, and dispensing 50 μl/well infected cells to pre-plated compounds. […] Levels of a viral gene were measured in 10 ul qPCR assays using TaqMan® Gene Expression Master Mix (Applied Biosystems) and an 7900HT Fast Real-Time PCR System with 384-Well Block Module. 7-point, serial 10-fold dilutions of a plasmid standard were run on each plate to generate a standard curve, and genome copies numbers were calculated by plotting experimental Ct onto linear regression of the standard curve. […] Calculated % effects were fit using a 4-parameter algorithm, and EC50 was reported. • HCMV: Strain AD169 was assayed in MRC-5 cells and was used at 0.05-0.1 pfu/cell. […]
# HSV-1 Strain F = assay: Viral qPCR assay, HSV-1 (Example 14); format: cell-based; details: read-out: HSV1 Cell EC50; Strain F in Vero or MRCS cells, 0.0005-0.004 pfu/cell, ~72 hours, viral genome copy number by qPCR
# Description: as §3
Structure (SMILES),IC50 [1] [nM],IC50 [2] [nM],EC50 (HCMV Strain AD169) [nM],EC50 (HSV-2 Strain G) [nM],EC50 (HSV-1 Strain F) [nM]
COc1nc(NC(=O)Cc2ccc(Cl)cc2CN(C)C)ccc1C[C@H]1COC(=O)N1,108,2440,> 9900,–,–
COc1nc(NC(=O)Cc2ccc(C(F)(F)F)cc2)ccc1C[C@H]1COC(=O)N1,0.8,8,170,161,198
COc1nc(N2CCN(Cc3ccc(Cl)cc3)C2=O)ccc1C[C@H]1COC(=O)N1,–,35,409,–,–
"COc1nc(N2CCC(c3ccc(Cl)cc3)C2=O)ccc1C[C@H]1COC(=O)N1 (single isomer, unassigned)",0.4,5.8,311,159,215
